Results reported in patent publication US6713486B1, “Antiviral 2,4-pyrimidinedione derivatives and process for the preparation thereof” (Korea Research Institute of Chemical Technology, priority 1999, dated 2004).

Tested on: HIV-1
Conditions: CD50/ED50, MT-4 cells

SMILES	S.I. Selectivity index (CD50/ED50)
Cc1cc(C)cc(C(=O)c2c(C(C)C)c(=O)[nH]c(=O)n2Cc2ccncc2)c1 [Compound 1, 1-(4′-Picolyl)-5-isopropyl-6-(3′,5′-dimethylbenzoyl)-2,4-pyrimidinedione]	8,600
Cc1cc(C)cc(C(=O)c2c(C(C)C)c(=O)[nH]c(=O)n2Cc2cccnc2)c1 [Compound 2, 1-(3′-Picolyl)-5-isopropyl-6-(3′, 5′-dimethylbenzoyl)-2,4-pyrimidinedione]	7,578
Cc1cc(C)cc(C(=O)c2c(C(C)C)c(=O)[nH]c(=O)n2Cc2ccccn2)c1 [Compound 3, 1-(2′-Picolyl)-5-isopropyl-6-(3′, 5′-dimethylbenzoyl)-2,4-pyrimidinedione]	4,788
Cc1cc(Cl)cc(Cn2c(C(=O)c3cc(C)cc(C)c3)c(C(C)C)c(=O)[nH]c2=O)c1 [Compound 40]	229
Cc1cc(C)cc(C(=O)c2c(C(C)C)c(=O)[nH]c(=O)n2Cc2cc(F)cc(F)c2)c1 [Compound 43]	2,057
Cc1cc(C)cc(C(=O)c2c(C(C)C)c(=O)[nH]c(=O)n2Cc2cc(C(F)(F)F)cc(C(F)(F)F)c2)c1 [Compound 44]	5
Cc1cc(C)cc(Nc2c(C(C)C)c(=O)[nH]c(=O)n2Cc2ccncc2)c1 [Compound 66, 1-(4′-Picolyl)-5-isopropyl-6-(3′, 5′-dimethylphenylamino)-2,4-pyrimidinedione]	>1,287
CCc1c(Nc2cc(C)cc(C)c2)n(Cc2ccncc2)c(=O)[nH]c1=O [Compound 67, 1-(4′-Picolyl)-5-ethyl-6-(3′, 5′-dimethylphenylamino)-2,4-pyrimidinedione]	130
Cc1cc(C)cc(C(=O)c2c(C(C)C)c(=O)[nH]c(=O)n2Cc2cc[n+]([O-])cc2)c1 [Compound 68, 1-(N-oxo-4′-Picolyl)-5-isopropyl-6-(3′,5′-dimethylbenzoyl)-2,4-pyrimidinedione]	3,928
Cc1cc(C)cc(C(=O)c2c(C(C)C)c(=O)[nH]c(=O)n2Cc2cc[n+]([O-])cc2C)c1 [Compound 69, 1-(N-oxo-3′-Methyl-4′-picolyl)-5-isopropyl-6-(3′, 5′-dimethylbenzoyl)-2,4-pyrimidinedione]	3,853
Cc1cc(C)cc(C(=O)c2c(C(C)C)c(=O)[nH]c(=O)n2Cc2c(C)c[n+]([O-])cc2C)c1 [Compound 70, 1-(N-oxo-3′, 5-Dimethyl-4′-picolyl)-5-Isopropyl-6-(3′, 5′-dimethylbenzoyl)-2,4-Pyrimidinedione]	4,712
Cc1cc(Cl)cc(C(=O)c2c(C(C)C)c(=O)[nH]c(=O)n2Cc2c(C)c[n+]([O-])cc2C)c1 [Compound 71, 1-(N-oxo-3′,5′-Dimethyl-4′-picolyl)-5-isopropyl-6-(3′,-chloro-5-methylbenzoyl)-2,4-pyrimidinedione]	3,092
CC(=O)OCc1cnccc1Cn1c(C(=O)c2cc(C)cc(C)c2)c(C(C)C)c(=O)[nH]c1=O [Compound 72, 1-(3′-Acetoxymethyl-4′-picolyl)-5-Isopropyl-6-(3′,5′-dimethylbenzoyl)-2,4-pyrimidinedione]	4,365
CC(=O)OCc1cncc(C)c1Cn1c(C(=O)c2cc(C)cc(C)c2)c(C(C)C)c(=O)[nH]c1=O [Compound 73, 1-(3′-Acetoxymethyl-5′-methyl-4′-picolyl)-5-isopropyl-6-(3′,5′-dimethylbenzoyl)-2,4-pyrimidinedione]	5,903
Cc1cc(C)cc(C(=O)c2c(C(C)C)c(=O)[nH]c(=O)n2Cc2ccncc2CO)c1 [Compound 75, 1-(3′-Hydroxymethyl-4′-picolyl)-5-isopropyl-6-(3′,5′-dimethylbenzoyl)-2,4-pyrimidinedione]	13,444
Cc1cc(C)cc(C(=O)c2c(C(C)C)c(=O)[nH]c(=O)n2Cc2c(C)cncc2CO)c1 [Compound 76, 1-(3′-Hydroxymethyl-5′-methyl-4′-picolyl)-5-isopropyl-6-(3′, 5′-dimethylbenzoyl)-2,4-pyrimidinedione]	4,561
Cc1cc(Cl)cc(C(=O)c2c(C(C)C)c(=O)[nH]c(=O)n2Cc2c(C)cncc2CO)c1 [Compound 77, 1-(3′-Hydroxymethyl-5′-methyl-4′-picolyl)-5-isopropyl-6-(3′-chloro-5′-methylbenzoyl)-2,4-pyrimidinedione]	2,052
COC(=O)c1cnccc1Cn1c(C(=O)c2cc(C)cc(C)c2)c(C(C)C)c(=O)[nH]c1=O [Compound 78, 1-(3′-Methoxycarbonyl-4′-picolyl)-5-isopropyl-6-(31,51-dimethylbenzoyl)-2,4-pyrimidinedione]	5,414
Cc1cc(C)cc(C(=O)c2c(C(C)C)c(=O)[nH]c(=O)n2Cc2ccncc2C(N)=O)c1 [Compound 79, 1-(3′-Carbamoyl-4′-picolyl)-5-isopropyl-6-(3′,5′-dimethylbenzoyl)-2,4-pyrimidinedione]	>10,942
Cc1cc(Cl)cc(C(=O)c2c(C(C)C)c(=O)[nH]c(=O)n2Cc2ccncc2C(N)=O)c1 [Compound 80, 1-(3′-Carbamoyl-4′-picolyl)-5-isopropyl-6-(3′-chloro-5′-methylbenzoyl)-2,4-pyrimidinedione]	2,507
